Measurements as given in patent publication USRE42152E1, “Aromatic-linked polyamine macrocyclic compounds with anti-HIV activity” (Genzyme Corporation, priority 1992, dated 2011).

Tests used:
HIV-1 (HTLV-IIIB) = assay type: cell-based; details: Selectivity Index, ratio of CC50 to IC50
HIV-2 (LAV-2 ROD) = test: MTT anti-viral screen, MT-4 cells challenged with HIV-2; assay type: cell-based; details: Selectivity Index, ratio of CC50 to IC50

With `c1ccc2c(CN3CCCNCCNCCCNCC3)ccc(CN3CCCNCCNCCCNCC3)c2c1` [E, 1,1′-[1,4-naphthylenebis(methylene)]bis-1,4,8,11-tetraazacyclotetradecane] the “SI HIV-1 (IIIB)” value (HIV-1 (HTLV-IIIB)) was 1014 and the “SI HIV-2 (ROD)” value (HIV-2 (LAV-2 ROD)) was 1420.
`Br.Br.Br.Br.Br.Br.Br.Br.O.O.O.O.c1cc(CN2CCCNCCNCCCNCC2)cc(-c2cccc(CN3CCCNCCNCCCNCC3)c2)c1` [Compound J, 1,1′-[3,3′-Biphenylene-bis-(methylene)]-bis-1,4,8,11-tetraazacyclotetradecane octahydrobromide tetrahydrate] was tested, and the “SI HIV-1 (IIIB)” value (HIV-1 (HTLV-IIIB)) was greater than 1250 and the “SI HIV-2 (ROD)” value (HIV-2 (LAV-2 ROD)) was greater than 900.
`Br.Br.Br.Br.Br.Br.Br.Br.O.O.O.O.O.O.c1cc(CN2CCCNCCNCCCNCC2)ccc1CN1CCCNCCNCCNCCC1` [Compound N, 1,11′-[1,4-Phenylene-bis-(methylene)]-1,4,8,11-tetraazacyclotetradecane-1,4,7,11-tetraazacydotetradecane octahydrobromide hexahydrate] was tested, and the “SI HIV-1 (IIIB)” value (HIV-1 (HTLV-IIIB)) was >5 × 10^4 and the “SI HIV-2 (ROD)” value (HIV-2 (LAV-2 ROD)) was >7.1 × 10^3.
With “1,1′-[1,4-Phenylene-bis-(methylene)]-bis-1,4,8,11-tetraazacyclotetradecane copper diacetate hexahydrate [Compound G]” the “SI HIV-1 (IIIB)” value (HIV-1 (HTLV-IIIB)) was >1.1 × 10^4 and the “SI HIV-2 (ROD)” value (HIV-2 (LAV-2 ROD)) was >7.4 × 10^3.
In the case of `Br.Br.Br.Br.Br.Br.Br.Br.Br.Br.O.O.O.O.O.c1cc(CN2CCCNCCNCCCNCC2)cc(-c2cc(CN3CCCNCCNCCCNCC3)ccn2)n1` [Compound K, 1,1′-[4,4′-(2,2′-Bipyridine)-bis-(methyl)]-bis-1,4,8,11-tetraazacyclotetradecane decahydrobromide pentahydrate], the “SI HIV-1 (IIIB)” value (HIV-1 (HTLV-IIIB)) is reported as 300 and the “SI HIV-2 (ROD)” value (HIV-2 (LAV-2 ROD)) is reported as 334.
With `Br.Br.Br.Br.Br.Br.Br.Br.Br.O.O.c1ncc(CN2CCCNCCNCCCNCC2)cc1CN1CCCNCCNCCCNCC1` [Compound P, 1,1′[3,5-Pyridinebis-(methylene)]-bis-1,4,8,11-tetraazacyclotetradecane nonahydrobromide dihydrate] the “SI HIV-1 (IIIB)” value (HIV-1 (HTLV-IIIB)) was >1.2 × 10^4 and the “SI HIV-2 (ROD)” value (HIV-2 (LAV-2 ROD)) was >5.5 × 10^3.
For `Br.Br.Br.Br.Br.Br.c1cc(CN2CCNCCNCCNCC2)ccc1CN1CCNCCNCCNCC1` [Compound R, 1,1′-[1,4-Phenylenebis-(methylene)]-bis-1,4,7,10-tetraazacyclododecane hexahydrobromide], the “SI HIV-1 (IIIB)” value (HIV-1 (HTLV-IIIB)) was 170 and the “SI HIV-2 (ROD)” value (HIV-2 (LAV-2 ROD)) was 23.
For `Br.Br.Br.Br.Br.Br.Br.Br.Br.Br.O.O.O.c1cc2ccc3ccc(CN4CCCNCCNCCCNCC4)nc3c2nc1CN1CCCNCCNCCCNCC1` [Compound L, 1,1′-[2,9-(1,10-Phenanthroline)-bis-(methylene)]-bis-1,4,8,11-tetraazacyclotetradecane decahydrobromide trihydrate], the “SI HIV-1 (IIIB)” value (HIV-1 (HTLV-IIIB)) was greater than 690 and the “SI HIV-2 (ROD)” value (HIV-2 (LAV-2 ROD)) was greater than 625.
For `Br.Br.Br.Br.Br.Br.Br.Br.c1cc(CN2CCCNCCNCCCNCC2)sc1CN1CCCNCCNCCCNCC1` [Compound T, 1,1′-[2,5-Thophenebis-(methylene)]-bis-1,4,8,11-tetraazacyclotetradecane octahydrobromide], the “SI HIV-1 (IIIB)” value (HIV-1 (HTLV-IIIB)) was >5.0 × 10^4 and the “SI HIV-2 (ROD)” value (HIV-2 (LAV-2 ROD)) was >2.5 × 10^4.
In the case of `Cc1cc(CN2CCCNCCNCCCNCC2)c(C)cc1CN1CCCNCCNCCCNCC1` [W, 1,1′-[2,5-dimethyl-1,4-phenylenebis-(methylene)]-bis-1,4,8,11-tetraazacyclotetradecane], the “SI HIV-1 (IIIB)” value (HIV-1 (HTLV-IIIB)) is reported as >3.2 × 10^4 and the “SI HIV-2 (ROD)” value (HIV-2 (LAV-2 ROD)) is reported as >1.9 × 10^5.
For `c1ccc(-c2cc(CN3CCCNCCNCCCNCC3)cc(CN3CCCNCCNCCCNCC3)n2)cc1` [Z, 1,1′-[6-phenyl-2,4-pyridinebis-(methylene)]-bis-1,4,8,11-tetraazacyclotetradecane], the “SI HIV-1 (IIIB)” value (HIV-1 (HTLV-IIIB)) was 5112 and the “SI HIV-2 (ROD)” value (HIV-2 (LAV-2 ROD)) was 1.0 × 10^4.
With `Br.Br.Br.Br.Br.Br.Br.Br.O.O.c1cc(CN2CCCNCCNCCNCCC2)ccc1CN1CCCNCCNCCNCCC1` [Compound M, 11,11′-[1,4-Phenylene-bis-(methylene)]-bis-1,4,7,11-tetraazacyclotetradecane octahydrobromide dihydrate] the “SI HIV-1 (IIIB)” value (HIV-1 (HTLV-IIIB)) was >1.6 × 10^4 and the “SI HIV-2 (ROD)” value (HIV-2 (LAV-2 ROD)) was >7.1 × 10^3.
For `Brc1cc(CN2CCCNCCNCCCNCC2)ccc1CN1CCCNCCNCCCNCC1` [Y, 1,1′-[2-bromo-1,4-phenylenebis-(methylene)]-bis-1,4,8,11-tetraazacyclotetradecane], the “SI HIV-1 (IIIB)” value (HIV-1 (HTLV-IIIB)) was >3.2 × 10^4 and the “SI HIV-2 (ROD)” value (HIV-2 (LAV-2 ROD)) was >5.7 × 10^4.
For “1,1′-[1,4-Phenylene-bis-(methylene)]-bis-1,4,8,11-tetraazacyclotetradecane zinc dichloride monohydrate [Compound F]”, the “SI HIV-1 (IIIB)” value (HIV-1 (HTLV-IIIB)) was >7.6 × 10^4 and the “SI HIV-2 (ROD)” value (HIV-2 (LAV-2 ROD)) was >1 × 10^5.
With `c1cc(CN2CCCNCCNCCCNCC2)ccc1CN1CCCNCCNCCCNCC1` [Compound B, 1,1′-[1,4-phenylenebis(methylene)]bis-1,4,8,11-tetraazacyclotetradecane] the “SI HIV-1 (IIIB)” value (HIV-1 (HTLV-IIIB)) was >8.3 × 10^4 and the “SI HIV-2 (ROD)” value (HIV-2 (LAV-2 ROD)) was >5 × 10^4.
`Br.Br.Br.Br.Br.Br.c1cc(CN2CCNCCNCCNCC2)cc(CN2CCNCCNCCNCC2)c1` [Compound Q, 1,1′-[1,3-Phenylenebis-(methylene)]-bis-1,4,7,10-tetraazacyclododecane hexahydrobromide] was tested, and the “SI HIV-1 (IIIB)” value (HIV-1 (HTLV-IIIB)) was 271 and the “SI HIV-2 (ROD)” value (HIV-2 (LAV-2 ROD)) was 38.
In the case of `O=[N+]([O-])c1cc(CN2CCCNCCNCCCNCC2)cc(CN2CCCNCCNCCCNCC2)c1` [Compound C, 1,1′-[5-nitro-1,3-phenylenebis-(methylene)]-bis-1,4,8,11-tetraazacyclotetradecane], the “SI HIV-1 (IIIB)” value (HIV-1 (HTLV-IIIB)) is reported as 1100 and the “SI HIV-2 (ROD)” value (HIV-2 (LAV-2 ROD)) is reported as 756.
`Clc1cc(CN2CCCNCCNCCCNCC2)c(Cl)cc1CN1CCCNCCNCCCNCC1` [X, 1,1′-[2,5-dichloro-1,4-phenylenebis-(methylene)]-bis-1,4,8,11-tetraazacyclotetradecane] was tested, and the “SI HIV-1 (IIIB)” value (HIV-1 (HTLV-IIIB)) was 5461 and the “SI HIV-2 (ROD)” value (HIV-2 (LAV-2 ROD)) was 2.4 × 10^4.
For `c1cc(CN2CCCNCCNCCCNCC2)cc(CN2CCCNCCNCCCNCC2)c1` [A, 1,1′-[1,3-phenylenebis(methylene)]bis-1,4,8,11-tetraazacyclotetradecane], the “SI HIV-1 (IIIB)” value (HIV-1 (HTLV-IIIB)) was >1.5 × 10^4 and the “SI HIV-2 (ROD)” value (HIV-2 (LAV-2 ROD)) was >5 × 10^4.
With `Br.Br.Br.Br.Br.Br.Br.Br.O.O.O.O.c1cc(CN2CCCNCCNCCCNCC2)nc(CN2CCCNCCNCCCNCC2)c1` [Compound O, 1,1′-[2,6-Pyridinebis-(methylene)]-bis-1,4,8,11-tetraazacyclotetradecane octahydrobromide tetrahydrate] the “SI HIV-1 (IIIB)” value (HIV-1 (HTLV-IIIB)) was >1.6 × 10^4 and the “SI HIV-2 (ROD)” value (HIV-2 (LAV-2 ROD)) was >6.2 × 10^3.
